Deep mutational scan of the Zika virus protease

Chain scanned (Zika virus MR766; NS2B from position 2 to 131, then the start of NS3):
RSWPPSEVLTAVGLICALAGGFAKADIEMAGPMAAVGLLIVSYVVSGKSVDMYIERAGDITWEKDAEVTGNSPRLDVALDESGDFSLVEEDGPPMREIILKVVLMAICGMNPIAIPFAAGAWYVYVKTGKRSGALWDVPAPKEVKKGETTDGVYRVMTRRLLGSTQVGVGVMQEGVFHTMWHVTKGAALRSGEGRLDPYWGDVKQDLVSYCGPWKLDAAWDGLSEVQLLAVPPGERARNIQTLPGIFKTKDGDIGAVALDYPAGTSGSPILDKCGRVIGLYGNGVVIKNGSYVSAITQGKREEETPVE

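Mutant virus pools were grown in human Huh-7.5 cells. The effect is the change in frequency of a mutant, normalised to wild type, as a mean of three replicate libraries (two for positions 207-308).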

The number is log2 of the effect relative to wild type; negative values mean reduced growth, higher values better tolerance.
A change reads original residue, position, new residue.
The region was split into three libraries (1-103, 104-206, 207-308).

change | log2 effect
R1D | -6.93
R1F | -6.78
P4T | -4.81
P5Y | -5.51
S6R | -3.36
L9A | -3.95
A11K | -5.56
V12G | -3.33
L14W | -4.42
L18Q | -6.55
F22V | -0.15
A23I | -3.56
A25Y | -1.87
I27E | -5.43
A30* | -7.38
A30K | 0.43
A35G | -2.21
G37K | -6.05
L39C | -2.00
Y43D | -5.58
V44P | -6.55
V45P | -6.73
V50W | -6.46
R56* | -7.54
K64I | -0.34
K64Q | 0.38
D65W | -5.70
P73A | -7.13
D76E | 0.47
V77F | -6.36
D80E | -5.97
S82D | -4.45
G83T | -7.66
S86A | -4.24
L87* | -8.30
V88H | -5.73
E90R | -4.61
D91T | -1.35
R96E | -5.48
E97S | -3.75
I98W | -6.04
I99A | -0.19
L100E | -4.97
L100R | -7.26
K101* | -8.33
V102D | -4.93
V102L | -0.01
L104M | -1.07
M105* | -7.93
I107H | -5.09
C108* | -6.34
I113Q | -5.38
I115C | -2.57
P116L | -6.78
F117P | -5.69
A119F | -5.08
A121I | -1.33
Y123H | -1.99
T128Y | -5.84
K130D | -5.53
K130R | -7.19
D137G | -7.17
P141Q | -4.82
K142I | -2.64
K142W | -5.07
T150N | -1.44
D151* | -7.01
G152K | -5.90
V156N | -5.20
V156W | -6.29
M157C | -2.13
R160F | -5.50
L162R | -6.10
T165* | -6.52
T165N | -0.49
G168F | -4.59
G170C | -5.64
V171H | -5.48
M172L | -3.11
Q173K | -2.72
E174K | -5.94
H178F | -4.86
T184P | -7.05
G186K | -4.74
A187C | -1.58
G194Y | -5.51
R195Y | -5.48
Y199G | -5.14
Y199H | 0.10
D206A | -7.62
V208N | -7.52
V208Q | -7.65
W214C | -7.99
K215N | -7.08
L216M | -0.28
L216P | -7.26
S224I | -6.63
V226I | -4.93
Q227V | -6.53
L228T | -5.28
R236M | 0.77
A237M | -0.92
G245D | -5.24
T249I | -4.03
D251P | -6.28
A258Y | -5.53
S266K | -5.23
G267W | -5.01
K273Q | -0.82
G275* | -6.85
G275T | -4.86
G279I | -4.87
G279S | -6.01
L280A | -6.10
V285N | -4.27
V286P | -5.85
S291W | -4.89
V293Y | -4.14
S294K | -4.92
S294M | -4.96
A295S | -6.69
Q298W | -4.52
E302C | 0.94
E302G | -0.98

Extract of 14 entries:

* V77F: -6.36
* E302C: 0.94
* F22V: -0.15
* C108*: -6.34
* V226I: -4.93
* S294K: -4.92
* V293Y: -4.14
* E174K: -5.94
* L228T: -5.28
* S224I: -6.63
* V44P: -6.55
* A35G: -2.21
* V50W: -6.46
* K142I: -2.64

Position 1 still belongs to NS2A. In the paper, -1 or higher counts as tolerated.
An asterisk is a stop codon; stop codons read about -7, near the floor of the assay.
Six mutants with high scores were retested singly and none clearly outgrew wild type, so positive values are not proof of better growth.

Source: Ni et al. 2025 (doi:10.1038/s41467-025-63602-z), supplementary data.